This note sets out measurements from doi:10.1101/2024.06.06.597810 (bioRxiv, 2024).

In the test the target is T1, Biotin-labeled SARS-CoV-2 stem helix peptide (SARS-CoV-2 (NC_045512), UniProt P0DTC2, biotin (position not given)).
T1 chain: DSFKEELDKYFKNH
As to conditions: both partners purified.

B1: S2P6 UCA VH Y32Q Fab (Fab, V domains shown)
VH: QVQLVQSGAEVKKPGASVKVSCKASGYTFTSQYMHWVRQAPGQGLEWMGIINPSGGSTSYAQKFQGRVTMTRDTSTSTVYMELSSLRSEDTAVYYCARGSPKGAFDYWGQGTLVTVSS
VL: not shown
Take B1: the binding result was “binds”.

B2: S2P6 UCA VH M48I Fab (Fab, V domains shown)
VH: QVQLVQSGAEVKKPGASVKVSCKASGYTFTSYYMHWVRQAPGQGLEWIGIINPSGGSTSYAQKFQGRVTMTRDTSTSTVYMELSSLRSEDTAVYYCARGSPKGAFDYWGQGTLVTVSS
VL: not shown
Consider B2, for which the binding result was “binds”.

B3: S2P6 UCA VH S56H Fab (Fab, V domains shown)
VH: QVQLVQSGAEVKKPGASVKVSCKASGYTFTSYYMHWVRQAPGQGLEWMGIINPSGGHTSYAQKFQGRVTMTRDTSTSTVYMELSSLRSEDTAVYYCARGSPKGAFDYWGQGTLVTVSS
VL: not shown
For the molecule B3, the binding result was “binds”.

B4: S2P6 UCA VH Y32Q/M48I/S56H triple mutant Fab (Fab, V domains shown)
VH: QVQLVQSGAEVKKPGASVKVSCKASGYTFTSQYMHWVRQAPGQGLEWIGIINPSGGHTSYAQKFQGRVTMTRDTSTSTVYMELSSLRSEDTAVYYCARGSPKGAFDYWGQGTLVTVSS
VL: not shown
notes: source: Expi293F, co-transfected, purified (IgG-CH1-XL beads)
On to B4, for which the binding result is on record as “binds”.

B5: S2P6 UCA VH M48I/S56H double mutant Fab (Fab, V domains shown)
VH: QVQLVQSGAEVKKPGASVKVSCKASGYTFTSYYMHWVRQAPGQGLEWIGIINPSGGHTSYAQKFQGRVTMTRDTSTSTVYMELSSLRSEDTAVYYCARGSPKGAFDYWGQGTLVTVSS
VL: not shown
notes: as for B4
B5: the binding result is “binds”.

B6: S2P6 UCA VH Y32Q/M48I double mutant Fab (Fab, V domains shown)
VH: QVQLVQSGAEVKKPGASVKVSCKASGYTFTSQYMHWVRQAPGQGLEWIGIINPSGGSTSYAQKFQGRVTMTRDTSTSTVYMELSSLRSEDTAVYYCARGSPKGAFDYWGQGTLVTVSS
VL: not shown
Consider B6, for which the binding result was “binds”.
